# Measurements as given in PubChem BioAssay AID652162 (Broad Institute, 2013).
# The list shows a part of the results, in another mix than the full data. Activity calls are given as the source filed them. Rule as the data show it: active = inhibition above about 10%; inactive = the rest.
# Target: Toxin B (Clostridioides difficile) (UniProt P18177)
# Experiment: TcdB glycohydrolase inhibitors, primary screen, biochemical, single point, plate reader (AID 652162)
# Details: TcdB glycohydrolase enzymatic assay, at 9.99 µM, hits give high values
row,Compound,inhibition
1,Clc1ccc(Cl)c(NC2=NCC(CBr)S2)c1 (centres undefined),inactive: 1.07%
2,COc1ccccc1OP(=O)(Nc1ccc(C)cn1)Oc1ccccc1OC,inactive: 0.235%
3,Cc1ccc(OP(=O)(Nc2nccs2)Oc2ccc(C)cc2)cc1,inactive: 1.27%
4,CN(C(=O)Cc1ccc(Cl)c(Cl)c1)[C@H]1CCCC[C@H]1N1CCCC1,inactive: -2.98%
5,Cc1ccc(N/C(=N/P(=O)(N2CCOCC2)N2CCOCC2)N2CCOCC2)cc1,inactive: -1.14%
6,NC(=O)c1cc([N+](=O)[O-])cc([N+](=O)[O-])c1N,inactive: 3.05%
7,O=C(NC(Sc1ccncn1)C(Cl)(Cl)Cl)c1ccccc1 (centres undefined),inactive: 0.133%
8,Nc1cc(N)c2nonc2c1[N+](=O)[O-],inactive: 0.634%
9,CC(C)CC(=O)NC(Sc1ccc(Cl)cc1)C(Cl)(Cl)Cl (centres undefined),inactive: 0.672%
10,CCn1c(=O)n(C2CCN(CC3CCCCCCC3)C[C@H]2CO)c2ccccc21 (some centres undefined),inactive: 0.473%
11,CN(C(=O)Cc1ccc(Cl)c(Cl)c1)[C@H]1CCCC[C@@H]1N1CCCC1,inactive: 2.85%
12,Cc1ccc(NP(=O)(Oc2ccccc2F)Oc2ccccc2F)nc1,inactive: 1.33%
13,O=P(Nc1nc2ccc(Cl)cc2s1)(c1ccccc1)c1ccccc1,inactive: 2.35%
14,CN(C)P(=O)(N(C)C)n1c(Nc2ccccc2)nnc1-c1ccccc1,inactive: 0.958%
15,CC(=O)Nc1ccc([As](=O)(O)O)cc1,inactive: -0.215%
16,O=C(O)c1ccccc1[As](=O)(O)O,inactive: 0.633%
17,CCCC1OP(N)(=O)OCC1CC (centres undefined),inactive: 1.79%
18,Nc1cccc2ccc([As](=O)(O)O)cc12,inactive: -1.78%
19,CN(C(=O)Cc1ccccc1)C1CC[C@@]2(CCCO2)C[C@@H]1N1CCCC1 (some centres undefined),inactive: 1.36%
20,O=C(Nc1cc([As](=O)(O)O)ccc1O)c1ccccc1,inactive: -8.98%
21,O=P1(N(CCCl)CCCl)OCCCS1 (centres undefined),inactive: 0.122%
22,O=C(O)CNc1ccc([As](=O)(O)O)cc1,inactive: 0.391%
23,COC(=O)C1(C)COP(=O)(Nc2ccccc2)OC1 (centres undefined),inactive: -0.661%
24,O=[N+]([O-])c1cccc(NC2=NCC(CBr)S2)c1 (centres undefined),inactive: 1.13%
25,O=[N+]([O-])c1ncn(CCn2ncnc2[N+](=O)[O-])n1,inactive: -0.004%

row,Compound,inhibition
1,CC(C)(C)C(=O)NC(Sc1ccncn1)C(Cl)(Cl)Cl (centres undefined),inactive: -0.821%
2,Cc1ccc(NP(=O)(Oc2ccccc2)Oc2ccccc2)nc1,inactive: -1.93%
3,O=[N+]([O-])c1cc([N+](=O)[O-])c(CCNc2ccccc2)c([N+](=O)[O-])c1,inactive: 2.09%
4,COc1ccc(C2=NCC(CBr)S2)cc1 (centres undefined),inactive: 1.45%
5,c1cc(-c2nn[nH]n2)ccc1-c1nn[nH]n1,inactive: 0.94%
6,CC(C)c1nc(Nc2ccccc2)n(P(=O)(N(C)C)N(C)C)n1,inactive: 1.24%
7,CC(C)=N/N=C(\N)N[N+](=O)[O-],inactive: 0.044%
8,CCN(/C(=N/P(=O)(N1CCOCC1)N1CCOCC1)N1CCOCC1)c1ccc(OC)cc1,inactive: -5.15%
9,Nc1ccc([As](=O)(O)c2ccc(N)cc2)cc1,inactive: 0.266%
10,C[N+]1=C2C=CC=CC=C2SC12C([N+](=O)[O-])=CC([N+](=O)[O-])=C[C-]2[N+](=O)[O-] (centres undefined),inactive: -1.57%
11,O=P(Nc1nc2ccccc2s1)(c1ccccc1)c1ccccc1,inactive: 1.47%
12,C[C@H]1OP(=O)(Oc2ccccc2)[C@H](O)[C@H](O)[C@H]1N=[N+]=[N-] (some centres undefined),inactive: 0.839%
13,CN(C)C1(CNC(=O)c2ccc(Cl)c(S(N)(=O)=O)c2)CCCCC1,inactive: 0.429%
14,O=P(Nc1ccccn1)(c1ccc(Br)cc1)c1ccc(Br)cc1,inactive: 2.03%
15,COc1ccc(N)c([N+](=O)[O-])c1[N+](=O)[O-],inactive: 2.84%
16,Nc1ccc(CCCCOc2ccccc2)cc1,inactive: -0.944%
17,C/C(N)=N\P(=O)(OCc1ccccc1)OCc1ccccc1,inactive: 0.528%
18,C(Cc1nn[nH]n1)Cc1nn[nH]n1,inactive: 0.462%
19,Nc1ccc([As](=O)(O)c2ccc([N+](=O)[O-])cc2)cc1,inactive: 1.25%
20,O=[As](O)(c1ccccc1)c1ccc(O)cc1,inactive: -1.23%
21,CC(=O)NC(SC(=S)N(C)C)C(Cl)(Cl)Cl (centres undefined),inactive: -1.14%
22,O=[N+]([O-])c1ncn(CCn2cnc([N+](=O)[O-])n2)n1,inactive: 0.781%
23,O=P1(N(CCCl)CCCl)OCCC2CCCCN21 (centres undefined),inactive: -6.42%
24,c1ccc(-c2nn[nH]n2)c(-c2nn[nH]n2)c1,inactive: -0.182%
25,Cc1ccc(NP(=O)(Oc2cccc(C)c2)Oc2cccc(C)c2)nc1,inactive: -0.597%

row,Compound,inhibition
1,O=C(NC1CCS(=O)(=O)C1)NP(=S)(Oc1ccccc1)Oc1ccccc1 (centres undefined),inactive: 0.977%
2,CCNC(=S)/N=C(\N)N[N+](=O)[O-],inactive: 0.333%
3,CC(NC(=O)COC(=O)C(O)(c1ccccc1)c1ccccc1)c1ccccc1 (centres undefined),inactive: 4.79%
4,Cc1ccccc1OP(=O)(Nc1ccccn1)Oc1ccccc1C,inactive: 1.33%
5,O=c1c2cc([N+](=O)[O-])ccc2[nH]c2c([N+](=O)[O-])cc([N+](=O)[O-])cc12,inactive: 0.906%
6,CN(C)C(=O)Oc1noc2ccccc12,inactive: 1.57%
7,O=C(OC1CN2CCC1CC2)c1ccccc1 (centres undefined),inactive: 0.405%
8,Cc1ccc(OP(=O)(Nc2ccccn2)Oc2ccc(C)cc2)cc1,inactive: 0.373%
9,CC(C)(C)C(=O)NC(Sc1ccccc1)C(Cl)(Cl)Cl (centres undefined),inactive: 1.33%
10,CCc1cc(O)c([N+](=O)[O-])c(C)c1[N+](=O)[O-],inactive: 0.215%
11,CCOc1ccc(C2=NCC(CBr)S2)cc1 (centres undefined),inactive: 1.08%
12,CC(=O)Nc1ccc([As](=O)(O)O)c(O)c1,inactive: -0.528%
13,CC(=O)Nc1ccc(Oc2c([N+](=O)[O-])cc([N+](=O)[O-])cc2[N+](=O)[O-])cc1,active: 30.3%
14,Cc1ccccc1CN(C)C(=O)COC(=O)C(O)(c1ccccc1)c1ccccc1,inactive: -0.328%
15,C[C@H]1OP(=O)(Oc2ccccc2)C[C@@H]2O[C@@H]21 (some centres undefined),inactive: 1.86%
16,C[C@@H]1C=CCP(=O)(Oc2ccccc2)O1 (some centres undefined),inactive: -14.2%
17,CC(=O)c1ccc(N2CC2c2ccncc2)cc1 (centres undefined),inactive: 0.877%
18,N#C/C(=C\c1ccc(N(CCBr)CCBr)cc1)C(N)=O,inactive: 2.17%
19,COC(=O)C1(C)COP(=O)(NCc2ccccc2)OC1 (centres undefined),inactive: 0.384%
20,O=[As](O)(c1cccc(O)c1)c1cccc(O)c1,inactive: -0.416%
21,O=C(OC1CN2CCC1CC2)c1ccc(Cl)cc1 (centres undefined),inactive: 0.006%
22,O=[As](O)(O)c1cccnc1,inactive: 0.923%
23,COc1cc(C(=O)NCC2(N3CCOCC3)CCCCC2)cc(Cl)c1OC(C)C,inactive: 2.84%
24,CS(=O)(=O)c1ccc(Cl)c(NC(=O)COC(=O)C(O)(c2ccccc2)c2ccccc2)c1,inactive: 0.834%
25,CCOP(=O)(Nc1cccc2ccccc12)OCC,inactive: 0.964%

row,Compound,inhibition
1,Cc1ccc(NCCc2c([N+](=O)[O-])cc([N+](=O)[O-])cc2[N+](=O)[O-])cc1,inactive: 0.139%
2,Nc1cccc2c([As](=O)(O)O)cccc12,inactive: -0.24%
3,CCCOP(=S)(Nc1nc(N)cc(=O)[nH]1)OCCC,inactive: -3.84%
4,O=C(O)COc1ccc([As](=O)(O)O)cc1[N+](=O)[O-],inactive: 1.01%
5,Nc1ccccc1[As](=O)(O)c1ccccc1,inactive: 1.12%
6,CCOP1(=S)c2c(C)nn(CCC#N)c2N=C(c2ccccc2F)N1C (centres undefined),inactive: -1.07%
7,O=P(Nc1nccs1)(Oc1ccccc1)Oc1ccccc1,inactive: 0.6%
8,N#CCCN(C(=O)COC(=O)C(O)(c1ccccc1)c1ccccc1)c1ccc(F)cc1,inactive: 1.78%
9,CCOP1(=S)c2c(C)nn(CCC#N)c2N=C(c2ccc(F)cc2)N1C (centres undefined),inactive: -0.093%
10,CN(C(=O)Cc1ccccc1)[C@@H]1CC[C@]2(CCCO2)C[C@H]1N1CCCC1,inactive: 0.935%
11,CN(C)C(=O)c1cc([N+](=O)[O-])cc2c1-c1c(cc([N+](=O)[O-])cc1[N+](=O)[O-])C2=O,inactive: 0.211%
12,CN(C(=O)Cc1ccc(Cl)c(Cl)c1)[C@H]1CC[C@@]2(CCCO2)C[C@@H]1N1CCCC1,inactive: -0.718%
13,NC(=O)Nc1ccc([As](=O)(O)O)cc1,inactive: 0.387%
14,CN(C)C1(CNC(=O)c2ccc(S(C)(=O)=O)cc2)CCCCC1,inactive: -0.987%
15,O=C(/C=C/c1ccccc1)OC1CN2CCC1CC2 (centres undefined),inactive: 0.852%
16,CCCC1OP(=O)(Nc2ccccc2)OCC1CC (centres undefined),inactive: 0.185%
17,Cc1ccc(C(=O)OC2CN3CCC2CC3)cc1 (centres undefined),inactive: -0.598%
18,CC1CCC(C(C)C)C(OP(=O)(Nc2ccccn2)c2ccccc2)C1 (centres undefined),inactive: 3.62%
19,Nc1cccc([As](=O)(O)c2ccccc2)c1,inactive: 1.11%
20,O=[As](O)(c1cccs1)c1cccs1,inactive: 0.368%
21,NS(=O)(=O)c1cccc(NC(=O)COC(=O)C(O)(c2ccccc2)c2ccccc2)c1,inactive: 2.05%
22,Cc1ccc(S(=O)(=O)N(CCCN)CCCc2c(C)nc(N)[nH]c2=O)cc1,inactive: 0.255%
23,O=P1(N(CCCl)CCCl)NCCC(C(F)(F)F)O1 (centres undefined),inactive: 1.76%
24,CC(C)(C)C(=O)NC(Sc1ncccn1)C(Cl)(Cl)Cl (centres undefined),inactive: 0.206%
